Anti-infective test results gathered from many reports (values: NIAID ChemDB through PubChem).

All rows: tests in culture; organism: Mycobacterium tuberculosis

Blank or dashed fields: not listed here. Percent inhibition refers to the dose given; in toxicity tests it is the harm to the cells. ECn: concentration that inhibits the pathogen or its effect by n%. Neighbouring rows are from separate reports. MIC bound: limit read from a one-dose screen.

compound	read by	mutations	read-out	setting	cells	strain	dose	result
O=[n+]1c(Sc2ccccc2)c(CBr)n([O-])c2cc(F)c(F)cc21			MIC			H37Rv		>6.25 µg/mL
[N-]=[N+]=NC(CCl)c1cn(COC(CO)CO)c(=O)[nH]c1=O			EC50			H37Ra		>100 µg/mL
NNC(=O)c1ccncc1	resazurin / absorbance	katG mutant isoniazid resistant	MIC			CHUV80045776		2.5 µg/mL
[C-]#[N+][C@@H]1[C@H](C(C)C)CC[C@@H](C)C12C=C(C)CC2			MIC			H37Rv		2 µg/mL
C=C(C)/C=C/[C@]12C[C@H](C)[C@H]3CC[C@](C)(NC=O)[C@@H](CC[C@H]1C)[C@@H]32			inhibition			H37Rv	32 µg/mL	91%
CC(CCC(=O)N[C@@H](Cc1ccccc1)C(=O)OCc1cn(CC2OC(n3ccc(=O)[nH]c3=O)[C@@H]3OC(C)(C)O[C@H]23)nn1)[C@H]1CCC2C3CCC4C[C@H](O)CC[C@]4(C)C3C[C@H](O)[C@@]21C	resazurin		MIC			H37Rv		14.09 µM
CCN(CC)CCCN(C)Cc1c(-c2ccccc2)oc(-c2ccccc2)c1Cl.Cl.Cl	BACTEC		MIC		VERO	H37Rv		1.56 µg/mL
CC(=O)OCC1=C[C@@H](OCCC(C)C)O[C@H](COC(=O)C(C)(C)C)C1=O	BACTEC / radiometric		MIC			H37Rv		>50 µg/mL
O=c1[nH]c2ccc(Cl)cc2c2nc3ccccc3n12	BACTEC		inhibition			H37Rv	12.5 µg/mL	-3%
NCCC[C@H](N)CC(=O)N[C@H]1CNC(=O)[C@H]([C@H]2C[C@H](O)NC(N)=N2)NC(=O)/C(=C/NC(N)=O)NC(=O)[C@H](CO)NC(=O)[C@H](CO)NC1=O			MBC			BCG		2 µg/mL
CN(C)C(=O)c1ccc(SC(=S)NCc2ccccc2)cc1	BACTEC		MIC			H37Rv		64 µg/mL
NC(=Nc1nc(-c2ccccn2)cc2ccccc12)c1ccccn1			MIC			H37Rv		0.25 µg/mL
NNC(=O)c1ccncc1			MIC			H37Rv		0.36 µM
COC(=O)c1nc(-c2cccc(F)c2)cnc1Nc1ccc(OCCCN(C)C)cc1	resazurin		MIC			H37Rv (ATCC 27294)		32 µg/mL
CCCN1C(=O)CC(NC(C)=O)C1=O	BACTEC		MIC bound			H37Rv		>12.8 µg/mL
NC(=Nc1ccc2ccc3cccnc3c2n1)c1ccccn1			MIC			H37Rv		4 µg/mL
CN(CC#CC(C)(C)C)c1cccc2c1CCC(=O)N2			inhibition			H37Rv	6.25 µg/mL	88%
[N-]=[N+]=NC(CCl)c1cn(COCCO)c(=O)[nH]c1=O			inhibition			H37Ra	10 µg/mL	25%
c1ccc(-c2c(-c3cccs3)[nH]c(-c3cccs3)c2-c2ccccn2)nc1	BACTEC		MIC bound			H37Rv		>12.5 µg/mL
O=C(Nc1ccc(Cl)c(Cl)c1)c1cc(F)ccc1O			MIC			CNCTC MY331/88		4 µM
Cc1c(N2CCN(C)C(c3ccccc3)C2)c([N+](=O)[O-])cc2c(=O)c(C(=O)O)cn(C3CC3)c12			MIC			H37Rv		0.84 µM
O=c1[nH]c(=O)n(COCCO)cc1Cl			EC50			H37Ra		>100 µg/mL
O=C(OCc1ccccc1)N1CCC[C@H]1c1cnc(-c2ccccc2)[nH]1			MIC	21 d		My 331/88		62.5 µM
C=Cc1cn(COC(CO)CO)c(=O)[nH]c1=O			EC50			H37Ra		>100 µg/mL
Cc1c(-c2ccc(C(c3ccccc3)N3CCN(C)CC3)cc2)c([N+](=O)[O-])cc2c(=O)c(C(=O)O)cn(C(C)(C)C)c12			MIC			H37Rv		>21.22 µM
CC(C)[C@H](NC(=O)OCc1ccccc1)c1cnc(-c2ccccc2)[nH]1			MIC	14 d		My 331/88		16 µM
CN(C)CCCOc1ccc(Nc2ncc(-c3cccc(F)c3)nc2C(N)=O)cc1	resazurin		MIC			H37Rv (ATCC 27294)		16 µg/mL
Cc1ccc(C)c(NCC(=O)NN)c1	BACTEC		MIC bound			H37Rv		>12.5 µg/mL
CC(C)Cn1c(-c2ccc(Cl)cc2)cs/c1=N\NC(=O)COc1cnccn1			MIC			H37Rv		7.2 µg/mL
Nc1ccc(C(=O)CCl)c(Cl)c1	BACTEC		inhibition			H37Rv	12.5 µg/mL	99%
CO[C@H]1/C=C/O[C@@]2(C)Oc3c(C)c(O)c4c(=O)c(c5oc6cc(N7CCN(CC(C)C)CC7)cc(=O)c6nc5c4c3=C2O)NC(=O)/C(C)=C\C=C\[C@H](C)[C@H](O)[C@@H](C)[C@@H](O)[C@@H](C)[C@H](OC(C)=O)[C@@H]1C			MIC			TN659		8 µg/mL
c1cc2ccc3ccc[n+]4c3c2[n+](c1)CC4	BACTEC		MIC bound			H37Rv		>12.5 µg/mL
C[C@H](NC(=O)OCc1ccccc1)c1cnc(-c2ccc([N+](=O)[O-])cc2)[nH]1			MIC	21 d		My 331/88		>125 µM
Cc1c(S(=O)(=O)c2ccccc2)[n+](=O)c2cc(Cl)ccc2n1[O-]			inhibition			H37Rv	6.25 µg/mL	100%
CC(CCC(=O)OCc1cn(CC2OC(n3ccc(=O)[nH]c3=O)[C@@H]3OC(C)(C)O[C@H]23)nn1)[C@H]1CCC2C3CCC4C[C@H](O)CC[C@]4(C)C3C[C@H](O)[C@@]21C	resazurin		MIC			H37Rv		8.45 µM
CC1=C[C@@H]2[C@@H](CC1)[C@@](C)(S)CC[C@H]2C(C)C			MIC			H37Rv		>128 µg/mL
Nc1ccc(C(=O)O)c(O)c1			MBC			BCG		8 µg/mL
CCC[C@@H](O)C1=C(Br)/C(=C/Br)OC1=O			MIC			H37Rv		>128 µg/mL
Cc1ccc2c(c1)[n+](=O)c(Cl)c(C)n2[O-]			MIC			H37Rv		3.13 µg/mL
O=C(Nc1cccc([N+](=O)[O-])c1)c1cc(Br)ccc1O			MIC			CNCTC MY331/88		8 µM
CC(CCC(=O)OCc1cn(CC2OC(n3ccc(=O)[nH]c3=O)[C@@H]3OC(C)(C)O[C@H]23)nn1)[C@H]1CCC2C3C(C[C@H](O)[C@@]21C)[C@@]1(C)CC[C@@H](O)CC1C[C@H]3O	resazurin		MIC			H37Rv		8.27 µM
CC(=O)N1CCSC(C(=O)Nc2ccccc2)=C1C	BACTEC		inhibition			H37Rv	6.25 µg/mL	7%
CC(=O)O[C@H]1CC/C(C)=C\[C@H]2OC(=O)[C@H]3O[C@]32[C@@H](O)[C@@H]2C(C)=CC[C@@H](OC(C)=O)[C@@]12C			MIC			H37Rv		>128 µg/mL
Cc1ccc(-c2cnc(Nc3ccc(OCCCN4CCN(C)CC4)nc3)c(C(N)=O)n2)c(F)c1	resazurin		MIC			H37Rv (ATCC 27294)		<0.5 µg/mL
CN(CC#CC#CC(C)(C)C)c1cccc2c1CCC(=O)N2			inhibition			H37Rv	6.25 µg/mL	19%
CC(=O)c1c(O)c(C)c(O)c2c1OC1=CC(=O)/C(=C(\C)N)C(=O)C12C	BACTEC		MIC bound			H37Rv		>12.5 µg/mL
O=C(NN=C1CCCCC1)c1ccncc1			MIC			Rifampicin-resistant		0.05 µg/mL
Cc1c(Sc2ccccc2)[n+](=O)c2cc(C(F)(F)F)ccc2n1[O-]			MIC			H37Rv		0.78 µg/mL
NC(=Nc1nc(-c2ccccn2)cc2ccccc12)c1ccc(Cl)c(Cl)c1			MIC			H37Rv		0.125 µg/mL
CC1=Nc2cc(Cl)c(Cl)cc2N(C)C1=CC1=C(Cl)C(=O)c2ccccc2C1=O	resazurin		inhibition			H37Rv	6.25 µg/mL	75%
CN(C)c1ccc(NC(=O)c2cc([N+](=O)[O-])ccc2O)cc1			MIC			CNCTC MY331/88		31 µM
CC1=C(C(=O)NCc2ccccc2)C(c2cccc([N+](=O)[O-])c2)C(C(=O)NCc2ccccc2)=C(C)N1	resazurin		inhibition			H37Rv	6.25 µg/mL	5%
[C-]#[N+][C@@]1(C)CC[C@H]2[C@H]3[C@H]4C(=CC(C)(C)C[C@@H]4C[C@@H]2C)CC[C@@H]31			MIC			H37Rv		8 µg/mL
Cc1c(C)c([N+](=O)[O-])c2c(c1N)C(=O)c1ccccc1C2=O	BACTEC		inhibition			H37Rv	12.5 µg/mL	-21%
CC(CCC(=O)N[C@@H](C)C(=O)OCc1cn(CC2OC(n3ccc(=O)[nH]c3=O)[C@@H]3OC(C)(C)O[C@H]23)nn1)[C@H]1CCC2C3C(C[C@H](O)[C@@]21C)[C@@]1(C)CC[C@@H](O)CC1C[C@H]3O	resazurin		MIC			H37Rv		15.12 µM
COc1ccc(-c2cs/c(=N\NC(=O)COc3cnccn3)n2-c2ccc(Cl)cc2Cl)cc1			MIC			H37Rv		15 µg/mL
C[C@@H](NC(=O)OCc1ccccc1)c1cnc(-c2ccccc2)[nH]1			MIC	21 d		My 331/88		125 µM
Cc1ccc(-c2cnc(Nc3cccc(O)c3)c(C(N)=O)n2)cc1	resazurin		MIC			H37Rv (ATCC 27294)		>32 µg/mL
CC1=Nc2ccccc2S/C1=C(/C)NNC(=O)C(N)=O	BACTEC		inhibition			H37Rv	12.5 µg/mL	50%
CCOc1ccc(NC(=S)NNC(=O)COc2cnccn2)cc1			MIC			H37Rv		85 µg/mL
Cc1ccc(-c2cnc(Nc3ccc(OCCCN4CCN(C)CC4)cc3)c(C(N)=O)n2)cc1F	resazurin		MIC			H37Rv (ATCC 27294)		0.5 µg/mL
O=[n+]1c(Sc2ccccc2)c(CBr)n([O-])c2cc(C(F)(F)F)ccc21			MIC			H37Rv		>6.25 µg/mL
CC(C)Cn1c(-c2ccc(Br)cc2)cs/c1=N\NC(=O)COc1cnccn1			MIC			H37Rv		6.3 µg/mL
Cc1c(N2CCN(Cc3ccc4c(c3)OCO4)CC2)c([N+](=O)[O-])cc2c(=O)c(C(=O)O)cn(C(C)(C)C)c12			MIC			H37Rv		23.92 µM
CC(C)N=c1cc2n(-c3ccc(Cl)cc3)c3ccccc3nc-2cc1Nc1ccc(Cl)cc1			MIC			BCG		0.13 µg/mL
CCC#CC#CCN(C)c1cccc2c1CCC(=O)N2			MIC			H37Rv		>6.25 µg/mL
O=C(Nc1cccc(Cl)c1)c1cc(Br)ccc1O			MIC			CNCTC MY331/88		8 µM
CC1=CC(=Nc2[nH+]cc(-c3ccc(C)c(F)c3)nc2C(N)=O)CC(=O)N1CCN1CCOCC1	resazurin		MIC			H37Rv (ATCC 27294)		2 µg/mL
CCOP1(=S)NNP(=S)(OCC)NN1	BACTEC		MIC			H37Rv		32 µg/mL
Cc1c(N2COCC2(C)C)c([N+](=O)[O-])cc2c(=O)c(C(=O)O)cn(C(C)(C)C)c12			MIC			H37Rv		15.49 µM
NCC[C@H](O)C(=O)N[C@@H]1C[C@H](N)[C@@H](O[C@H]2O[C@H](CN)[C@@H](O)[C@H](O)[C@H]2O)[C@H](O)[C@H]1O[C@H]1O[C@H](CO)[C@@H](O)[C@H](N)[C@H]1O			MBC					1 µg/mL
Cc1c(N2CCn3cc(C(=O)O)nc3C2)c([N+](=O)[O-])cc2c(=O)c(C(=O)O)cn(-c3ccc(F)cc3F)c12			MIC			H37Rv		5.96 µM
CC(=O)c1c(O)c(C)c(O)c2c1OC1=CC(=O)C(C(C)=O)C(=O)[C@]12C			MIC			H37Rv		16 µg/mL
Cc1c(Sc2ccccc2)[n+](=O)c2ccc(C(F)(F)F)cc2n1[O-]			inhibition			H37Rv	6.25 µg/mL	100%
CC(C(=O)n1ccnc1)N1c2ccccc2Sc2ccccc21	BACTEC		inhibition			H37Rv	12.5 µg/mL	87%
O=C(OCc1ccccc1)N1CCC[C@H]1c1cnc(-c2ccc([N+](=O)[O-])cc2)[nH]1			MIC	21 d		My 331/88		32 µM
OCCOCCN1CCN(CCCN2c3ccccc3Sc3ccc(C(F)(F)F)cc32)CC1	BACTEC		MIC bound			H37Rv		≤12.5 µg/mL
O=C(Nc1ccc(F)cc1)c1cc(Br)ccc1O			MIC			CNCTC MY331/88		8 µM
Cc1cc(=O)c2c([nH]1)c1c(c3[nH]c(C)cc(=O)c32)Oc2ccccc2O1			MIC			ETA-R		1.6 µg/mL
Cc1ccc(-c2cs/c(=N\NC(=O)COc3cnccn3)n2CC(C)C)cc1			MIC			H37Rv		13 µg/mL
Cc1ccc(N=Cc2c(O)c(O)c(C(C)C)c3cc(C)c(-c4c(C)cc5c(C(C)C)c(O)c(O)c(C=Nc6ccc(C)c(F)c6)c5c4O)c(O)c23)cc1F	BACTEC		MIC bound			H37Rv		>12.5 µg/mL
CN1CCN(CCCOc2ncc(Nc3ncc(-c4ccc(C(F)(F)F)c(F)c4)nc3C(N)=O)cn2)CC1	resazurin		MIC			H37Rv (ATCC 27294)		<0.5 µg/mL
CN(C)CCCN=c1c2ccccc2n(C)c2[nH]c(=O)n(C)c(=O)c12	BACTEC		MIC bound			H37Rv		>12.5 µg/mL
C=C[C@](C)(Cl)[C@@H](Br)/C=C/[C@](C)(Cl)CBr			MIC			ATCC 35830 (ethionamide-resistant)		6.25 µg/mL